The test system of the series is Endo-LysC. Put plainly: Endo-LysC cleavage of peptides, fluorescence lifetime readout. It counts as biochemical.
The mark [1] stands for this setting: 1 μM peptide in PCAF assay buffer, 25 nM Endo-LysC, one hour.

With “WQTARK(Me)STGGK^14APRK(9AA)QLATK-CONH2 [peptide 16]”, under “1 μM peptide in PCAF assay buffer”, the “FLT before Endo-LysC cleavage” value amounted to 13.9 ns. Also, under setting [1], the “FLT after Endo-LysC cleavage” value came to 15.7 ns and the “assay range (FLT increase on Endo-LysC)” value was determined as 1.8 ns.

For “K(9AA)ARTK(Me)QTARK^9STGGW-CONH2 [peptide 9]”, the “protease-dependent increase in FLT, absence of G9a treatment” value (1 μM peptide, 2 nM Endo-LysC, 60 min) is listed as 2.4 ns. Besides, the “FLT before Endo-LysC, t=0” value (G9a time-course, 1 μM peptide) came to 13.5 ns. Besides, the “FLT after Endo-LysC, t=0” value (G9a time-course, 1 μM peptide, 2 nM Endo-LysC 10 min) worked out at 16.5 ns.

The record behind these values is US20140080162A1, “FLUORESCENCE LIFETIME EPIGENETICS ASSAYS” (ALMAC SCIENCES (SCOTLAND) LIMITED, priority 2011, published 2014).
